For the assay, the target named is HIV-1 protease (Human immunodeficiency virus type 1 group M subtype B, UniProt P04585). To be noted: read-out: IC50 Ref.

From PMC10745491 (Frontiers in Cellular Neuroscience, 2023) come the findings set out here.

Usually IC50 stands for the concentration that inhibits the measured activity by half. For the substance pepstatin A [reference compound], the 50% inhibitory concentration (IC50) came to 1700 nM.
